Legend:
HIV integrase [1] = target: T1, HIV integrase (Human immunodeficiency virus type 1 group M subtype B, UniProt P04585); test: Integrase assay, inhibition of 3' processing activity (Example 7, Table 4); format: biochemical; settings: read-out: Inhibition of 3' processing activity (IC50)
HIV integrase [2] = target: T1, HIV integrase; test: Integrase assay, inhibition of strand transfer (Example 7, Table 4); format: biochemical; settings: read-out: Inhibition of strand transfer (IC50)

With `O=C(Nc1ccc2c(O)c(N=Nc3ccc([As](=O)(O)O)cc3)c(S(=O)(=O)O)cc2c1)Nc1ccc2c(O)c(N=Nc3ccc([As](=O)(O)O)cc3)c(S(=O)(=O)O)cc2c1` [Compound 48] the IC50 (HIV integrase [1]) was greater than 3 µM and the IC50 (HIV integrase [2]) was greater than 3 µM.
